Pooled drug test results. Numbers come from NIAID ChemDB, via PubChem.

Shared fields: tests in culture

MIC50, MIC90 and the like: level of inhibition, or share of isolates inhibited.

structure,read-out,read by,strain,dose,cell line,species,result
Nc1nc2c(ncn2CCC(CO)CO)c(=O)[nH]1,EC50,cytopathic effect,Oka CF1368-resistant,,HEL,Varicella zoster virus,18.2 µM
CC(C)(O)c1cn(-c2cccc([N+](=O)[O-])c2)nn1,inhibition,broth dilution,URM 4263,2048 µg/mL,,Candida krusei,0%
Nc1nc2c(ncn2COC(CO)CO)c(=O)[nH]1,EC95,virus yield,Recombinant C4 (D341E),,,Human cytomegalovirus,3.7 µM
CCCCCCCCCCCCOC(=O)[C@]1(O)C[C@@H](O)[C@@H](O)[C@H](OC(=O)/C=C/c2ccc(O)c(O)c2)C1,MIC,,Speare UMIP 1142.76,,,Aspergillus parasiticus,750 µg/mL
C[C@H]1Cc2c(n3ncc(Cc4ccccc4)c3n(-c3ccc(-c4nncn4C)cc3)c2=O)CN1C(=O)c1ccc(Br)c(C(F)(F)F)c1,EC50,luminescence,,,HepG2.117,Hepatitis B virus,0.05–0.5 µM
Nc1nc2c(ncn2COC(CO)CO)c(=O)[nH]1,EC50,hybridisation,C8803,,MRC-5,Human cytomegalovirus,0.7 µM
CN1CCCn2c(c3n(c2=O)CCN(C(=O)Nc2ccc(F)c(Cl)c2)C3)C1=O,EC50,PCR,,,HepG2.2.15,Hepatitis B virus,0.5–5 µM
Nc1ncnc2c1ncn2C=C1CC1CO,EC90,plaque count,VR6189 (ganciclovir-susceptible),,,Human cytomegalovirus,4.7 µM
C#CCc1cnn2c3c(c(=O)n(-c4ccc(C(=O)NC)cc4)c12)C[C@H](C)N(C(=O)c1ccc(Br)c(C(F)(F)F)c1)C3,EC50,luminescence,,,HepG2.117,Hepatitis B virus,0.05–0.5 µM
Cc1ccc(-n2cc(C(C)(C)O)nn2)cc1C,inhibition,broth dilution,URM 4986,2048 µg/mL,,Candida albicans,0%
CN[C@H]1CC[C@@H](c2ccc(Cl)c(Cl)c2)c2ccccc21,MIC90,broth dilution,UA 491,,,Cryptococcus neoformans,4 µg/mL
CC(C)CS[C@H]1C[C@@H](n2cnc3c(N)ncnc32)[C@H](O)[C@@H]1O,EC50,neutral red,,,CV-1,Measles virus,>100 µg/mL
O=C(NCCc1ccccc1)c1c2n(c(=O)n1-c1ccccc1)CCN(C(=O)c1ccc(Br)c(Cl)c1)C2,EC50,PCR,,,HepG2.117,Hepatitis B virus,0.5–5 µM
CCOC(=O)/C=C/[C@H](C[C@@H]1CCNC1=O)NC(=O)[C@@H](CC(=O)[C@@H](NC(=O)c1cc(C)on1)C(C)C)Cc1ccc(F)cc1,EC50,cytopathic effect / visual reading,Isolate 8,,OHIO HELA-I,Rhinovirus,0.04 µg/mL
Nc1ccn(C[C@@H](CO)OCP(=O)(O)O)c(=O)n1,EC50,cytopathic effect,Oka CF1368-resistant,,HEL,Varicella zoster virus,0.06 µM
CCCC(CCC)C(NC(C)=O)C1C(N=C(N)N)CC(C(=O)O)C1O,EC50,,H1N1 A/PR/8/34,,MDCK,Influenza A virus,0.7 µM
O=C(O)CP(=O)(O)O,EC50,cytopathic effect,Oka CF1368-resistant,,HEL,Varicella zoster virus,50 µM
Nc1ncnc2c1ncn2[C@@H]1C=C[C@@H](O)[C@H]1O,EC50,neutral red,SA,,CV-1,Measles virus,>100 µg/mL
O=C(NCc1c(F)cccc1-n1cccn1)c1c2n(c(=O)n1-c1ccc(OC3CC3)cc1)CCN(C(=O)c1ccc(Br)c(Cl)c1)C2,EC50,PCR,,,HepG2.117,Hepatitis B virus,<0.1 µM
CC(C)(O)c1cn(-c2ccc3ccccc3c2)nn1,inhibition,broth dilution,URM 3627,2048 µg/mL,,Candida parapsilosis,0%
COc1ccc(-n2c(C(=O)Nc3ncccc3Cc3ccccc3)c3n(c2=O)CCN(C(=O)c2ccc(Br)c(Cl)c2)C3)cc1,EC50,PCR,,,HepG2.117,Hepatitis B virus,0.5–5 µM
CC(C)Nc1nc2cc(Cl)c(Cl)cc2n1[C@@H]1O[C@H](CO)[C@@H](O)[C@H]1O,EC50,virus yield,AD169,,MRC-5,Human cytomegalovirus,1.3 µM
C=CCc1ccc(O)c(OC)c1,MIC90,turbidity,3000,,,Candida tropicalis,490 µg/mL
O=C(O)P(=O)(O)O,EC50,cytopathic effect,Clinical isolate VZV-27,,HEL,Varicella zoster virus,81.5 µM
CC(C)(O)c1cn(-c2ccc([N+](=O)[O-])cc2)nn1,inhibition,broth dilution,URM 4984,2048 µg/mL,,Candida parapsilosis,0%
Nc1ncnc2c1ncn2[C@@H]1C[C@H](N)[C@@H](O)[C@H]1O,EC50,neutral red,Edmonston,,CV-1,Measles virus,40 µg/mL
CC(=O)N[C@H]1[C@H]([C@H](O)[C@H](O)CO)OC(C(=O)O)=C[C@@H]1N=C(N)N,EC50,,Influenza A/Washington/05/96 (H3N2),,MDCK,Influenza A virus,0.2 µM
NC(=O)c1ccc(-n2c(C(=O)NCc3ccccc3)c3n(c2=O)CCN(C(=O)c2ccc(Br)c(Cl)c2)C3)cc1,EC50,PCR,,,HepG2.117,Hepatitis B virus,>5 µM
C[C@@H]1Cc2c(n3ncc(CC4CCC4)c3n(-c3ccc(-c4nncn4C)cc3)c2=O)CN1C(=O)c1ccc(Br)c(C(F)(F)F)c1,EC50,luminescence,,,HepG2.117,Hepatitis B virus,≤0.05 µM
O=C(NCc1cccc2cccnc12)c1c2n(c(=O)n1-c1ccc(OCC(F)(F)F)cc1)CCN(C(=O)c1ccc(Br)c(Cl)c1)C2,EC50,PCR,,,HepG2.117,Hepatitis B virus,0.1–0.5 µM
Nc1ncnc2c1ncn2C[C@@H](CO)OCP(=O)(O)O,EC50,cytopathic effect,OKA (WILD TYPE),,HEL,Varicella zoster virus,0.046 µM
CCC(CC)[C@H](NC(C)=O)[C@@H]1C[C@@H](C(=O)O)C[C@H]1N=C(N)N,EC50,,Beijing/184/93,,MDCK,Influenza B virus,0.09 µM
Cn1cc(C(=O)NCc2ccc(Cl)cc2)c(=O)c2cc(CN3CCOCC3)ccc21,inhibition,plaque count,ST varicella isolate,2.8 µM,HFF,Varicella zoster virus,90%
CCO/N=C/c1ccc(OCCC2CCN(c3ccc(Cl)nn3)CC2)cc1,EC50,neutral red,41467 (ICAM-1 receptor group 89),,KB,Rhinovirus,0.002 µM
COc1ccc(-n2c(C(=O)N[C@@H](C)c3ccccc3F)c3n(c2=O)CCN(C(=O)c2ccc(Br)c(Cl)c2)C3)cc1,EC50,PCR,,,HepG2.117,Hepatitis B virus,0.1–0.5 µM
Nc1ncnc2c1ncn2[C@H]1C[C@@H](N)[C@H](O)[C@@H]1O,EC50,cytopathic effect,,,CV-1,Measles virus,>100 µg/mL
CNc1nnc2cc(-n3c(=O)c4c(n5ncc(Cc6ccccc6)c35)CN(C(=O)c3ccc(Br)c(Cl)c3)CC4)ccn12,EC50,luminescence,,,HepG2.117,Hepatitis B virus,≤0.05 µM

The first 4 rows once more:

structure	read-out	read by	strain	dose	cell line	species	result
Nc1nc2c(ncn2CCC(CO)CO)c(=O)[nH]1	EC50	cytopathic effect	Oka CF1368-resistant		HEL	Varicella zoster virus	18.2 µM
CC(C)(O)c1cn(-c2cccc([N+](=O)[O-])c2)nn1	inhibition	broth dilution	URM 4263	2048 µg/mL		Candida krusei	0%
Nc1nc2c(ncn2COC(CO)CO)c(=O)[nH]1	EC95	virus yield	Recombinant C4 (D341E)			Human cytomegalovirus	3.7 µM
CCCCCCCCCCCCOC(=O)[C@]1(O)C[C@@H](O)[C@@H](O)[C@H](OC(=O)/C=C/c2ccc(O)c(O)c2)C1	MIC		Speare UMIP 1142.76			Aspergillus parasiticus	750 µg/mL

An empty or dashed field is not shown. Inhibition is in % at the dose shown (toxicity tests: loss of growth or viability). Neighbouring rows are from separate reports. Two numbers with a dash give a range or band. ECn: concentration that inhibits the pathogen or its effect by n%.